# Reference: paper PMC8982737, “Discovery of S-217622, a Noncovalent Oral SARS-CoV-2 3CL Protease Inhibitor Clinical Candidate for Treating COVID-19” (Journal of Medicinal Chemistry, 2022)
# Structures were worked out from names or drawings and are uncertain.
# Target: SARS-CoV-2 3CL protease (Severe acute respiratory syndrome coronavirus 2, UniProt P0DTD1)
# Details: read-out: SARS-CoV-2 3CLpro IC50
row,SMILES,IC50 [nM]
1,COc1ccc(N=c2[nH]c(=O)n(Cc3nc[nH]n3)c(=O)n2Cc2cc(F)c(F)c(F)c2)cc1,280
2,COc1ccc(N=c2[nH]c(=O)n(Cc3ncn(C)n3)c(=O)n2Cc2cc(F)c(F)c(F)c2)cc1,1100
